Source: paper PMC8166163

Molecular target: HIV-1 NL4.3 envelope glycoprotein (Env), WT, full-length cytoplasmic tail (HIV-1 NL4.3)

soluble CD4 (from UniProt P01730 26-396) (receptor)
neutralisation of HIV-1 NL4.3 WT virus by sCD4, IC50: 5.3 µg/mL
